Pooled drug test results. Numbers come from NIAID ChemDB, via PubChem.

Common to all: whole-cell or culture tests; organism: HIV-1; read-out: EC50

ECn: concentration that inhibits the pathogen or its effect by n%. Lines come from different laboratories, so protocols vary.

{"structure": "Cc1cn([C@@H]2O[C@H](CO[Si](C)(C)C(C)(C)C)C3(OS(=O)(=O)C=C3N)[C@H]2O[Si](C)(C)C(C)(C)C(C)C)c(=O)n(C)c1=O", "read by": "syncytia", "strain": "IIIB", "cell line": "CEM", "value": "0.11 µM"}
{"structure": "COc1ccc2c(c1)N(C(=O)OC(C)C)[C@@H](CSC)C(=S)N2", "read by": "p24", "strain": "I420 AZT-resistant (RT M41L D67N K70R T215Y)", "mutations": "RT-M41L D67N K70R T215Y", "cell line": "PBL", "value": "0.001 µM"}
{"structure": "CCOCn1c(Sc2cc(C)cc(C)c2)c(CC)c(=O)[nH]c1=O", "read by": "cytopathic effect / MTT", "strain": "IIIB", "cell line": "MT-4", "value": "0.0062 µM"}
{"structure": "CO[Si](OC[C@H]1O[C@@H](n2cc(C)c(=O)n(C)c2=O)[C@H](O[Si](C)(C)C(C)(C)C)C12OS(=O)(=O)C=C2N)(c1ccccc1)C(C)(C)C", "read by": "syncytia", "strain": "IIIB", "cell line": "MT-4", "value": "3.4 µM"}
{"structure": "Cc1cn([C@H]2CC[C@@H](CO)O2)c(=O)[nH]c1=O", "read by": "cytopathic effect / MTT", "setting": "7 d", "strain": "BRU", "cell line": "CEM-C113 + CEM/C113", "value": "<0.2 µM"}
{"structure": "O=c1ccn([C@H]2CC[C@@H](CO)O2)c(=O)[nH]1", "read by": "cytopathic effect / trypan blue", "strain": "IIIB", "cell line": "MT-4", "value": "129 µM"}
{"structure": "Cc1cn([C@H]2C[C@H](N=[N+]=[N-])[C@@H](COP(=O)(O)CP(=O)(O)O)O2)c(=O)[nH]c1=O", "read by": "cytopathic effect / trypan blue", "strain": "IIIB", "cell line": "ATH8", "value": "200 µM"}
{"structure": "O=C1Nc2ccc(Cl)cc2[C@@](C#CC2CC2)(C(F)(F)F)O1", "read by": "p24", "strain": "BaL", "cell line": "PBMC", "value": "0.00004 µM"}
{"structure": "CC1=CC(=O)[C@@H](O)[C@]2(C)[C@H]3[C@@]4(O)OC[C@@]35[C@@H](C[C@@H]12)OC(=O)C[C@H]5[C@@H](C)[C@H]4O", "read by": "p24", "cell line": "PBMC", "value": "0.027 µM"}
{"structure": "O=S1(=O)N=C(Nc2cccc(Cl)c2)C=C(Cc2ccccc2)N1", "read by": "MTT", "strain": "IIIB", "cell line": "MT-4", "value": ">189 µM"}
{"structure": "CCCCC#CCSc1ccccc1OC(C)=O", "read by": "p24", "strain": "IIIB A17 (NNRTI-resistant RT K103N Y181C)", "cell line": "PBMC", "value": ">100 µM"}
{"structure": "CO[P@](=O)(c1cc(C)cc(/C=C/C#N)c1)c1c(C(N)=O)[nH]c2ccc(Cl)cc12", "strain": "BH10", "cell line": "U-937", "value": "0.0013 µM"}
{"structure": "Cc1ccc(/C=C/C=C/C(=O)[Se]c2ccccc2)cc1", "read by": "MTT", "strain": "LAI", "cell line": "MT-2", "value": "4.3 µM"}
{"structure": "C#C[C@@]1(CO)C=C[C@H](n2cc(C)c(=O)[nH]c2=O)O1", "read by": "luciferase / reporter gene", "strain": "NL4-3", "cell line": "TZM-bl", "value": "0.01656 µM"}
{"structure": "CCc1c(Sc2cc(C)cc(C)c2)n(COCc2ccccc2)c(=O)[nH]c1=O", "read by": "cytopathic effect / MTT", "strain": "IIIB", "cell line": "MT-4", "value": "0.0024 µM"}
{"structure": "Nc1ncnc2c1ncn2[C@H]1CC[C@@H](CO)O1", "read by": "p24", "strain": "LAV", "cell line": "H9", "value": ">1 µM"}
{"structure": "Cc1cn([C@@H]2O[C@H](COCc3ccccc3)C3(OS(=O)(=O)C(Cc4ccccc4)=C3NCc3ccccc3)[C@H]2O[Si](C)(C)C(C)(C)C)c(=O)n(C)c1=O", "read by": "syncytia", "strain": "IIIB", "cell line": "MT-4", "value": "5.2 µM"}
{"structure": "CS(=O)(=O)c1ccc(OP(=O)(OC[C@@H]2CC[C@H](n3cnc4c(=O)[nH]cnc43)O2)OC[C@@H]2CC[C@H](n3cnc4c(=O)[nH]cnc43)O2)cc1", "read by": "cytopathic effect / trypan blue", "strain": "IIIB", "cell line": "MT-4", "value": "≥250 µM"}
{"structure": "O=C(/C=C/C=C/c1ccc([N+](=O)[O-])cc1)[Se]c1ccccc1", "read by": "MTT", "strain": "LAI", "cell line": "MT-2", "value": "6.7 µM"}
{"structure": "Cc1cn([C@@H]2O[C@H](COC(=O)C(C)(C)C)C3(OS(=O)(=O)C=C3N)[C@H]2O[Si](C)(C)C(C)(C)C)c(=O)[nH]c1=O", "read by": "syncytia", "strain": "IIIB", "cell line": "CEM", "value": ">35 µM"}
{"structure": "CS(=O)(=O)c1ccc(OP(=O)(OC[C@@H]2C=C[C@H](n3ccc(N)nc3=O)O2)OC[C@@H]2C=C[C@H](n3ccc(N)nc3=O)O2)cc1", "read by": "cytopathic effect / trypan blue", "strain": "IIIB", "cell line": "MT-4", "value": "5.3 µM"}
{"structure": "C1CNCCNCCCN[C@H]([C@@H]2CNCCCNCCNCCCN2)CNC1", "read by": "antigen", "strain": "IIIB", "cell line": "HuT-78 + HUT 78", "value": "0.43 µM"}
{"structure": "CCOCn1c(Sc2cc(C)cc(C)c2)c(CC)c(=O)[nH]c1=S", "read by": "cytopathic effect / MTT", "strain": "RF", "cell line": "MT-4", "value": "0.0026 µM"}
{"structure": "Cc1cn([C@H]2C[C@H](N=[N+]=[N-])[C@@H](CO)O2)c(=O)[nH]c1=O", "read by": "cytopathic effect / MTT", "setting": "7 d", "strain": "BRU", "cell line": "CEM-C113 + CEM/C113", "value": "<0.2 µM"}
{"structure": "Cc1cn([C@H]2C[C@H](N=[N+]=[N-])[C@@H](COP(=O)(O)CP(=O)(O)OP(=O)(O)O)O2)c(=O)[nH]c1=O", "read by": "cytopathic effect / trypan blue", "strain": "IIIB", "cell line": "ATH8", "value": ">200 µM"}
{"structure": "Cc1cn([C@H]2CC[C@@H](CO)O2)c(=O)[nH]c1=O", "read by": "cytopathic effect / trypan blue", "strain": "IIIB", "cell line": "MT-4", "value": "1.1 µM"}
{"structure": "Nc1ccn([C@H]2CC[C@@H](CO)O2)c(=O)n1", "read by": "cytopathic effect / MTT", "setting": "7 d", "strain": "BRU", "cell line": "CEM-C113 + CEM/C113", "value": "<0.2 µM"}
{"structure": "COc1cc(/C=C/C(=O)[Se]c2ccccc2)ccc1O", "read by": "MTT", "strain": "LAI", "cell line": "MT-2", "value": "3.3 µM"}
{"structure": "Cc1cn([C@@H]2O[C@H](CO[Si](c3ccccc3)(c3ccccc3)C(C)(C)C)C3(OS(=O)(=O)C=C3N)[C@H]2O[Si](c2ccccc2)(c2ccccc2)C(C)(C)C)c(=O)[nH]c1=O", "read by": "syncytia", "strain": "IIIB", "cell line": "CEM", "value": ">150 µM"}
{"structure": "Cc1cn([C@H]2C[C@H](N=[N+]=[N-])[C@@H](COP(=O)(O)O)O2)c(=O)[nH]c1=O", "read by": "cytopathic effect / trypan blue", "strain": "IIIB", "cell line": "ATH8", "value": "14 µM"}
{"structure": "COc1c(O)c(Cl)c2c(c1OC)-c1c(c(Cl)c(O)c(OC)c1OC)C[C@H](C)[C@H](C)C2", "read by": "cytopathic effect / MTT", "strain": "IIIB", "cell line": "MT-4", "value": "1.42 µM"}
{"structure": "O=S1(=O)NC(Cc2ccccc2)=CC(=NCc2ccccc2)N1", "read by": "MTT", "strain": "IIIB", "cell line": "MT-4", "value": ">238 µM"}
{"structure": "CC(C)Nc1cccnc1N1CCN(C(=O)c2ccc(-c3ccc(NS(C)(=O)=O)cc3)[nH]2)CC1", "read by": "p24", "strain": "IIIB", "cell line": "MT-4", "value": "<0.8 µM"}
{"structure": "O=S1(=O)N=C(Nc2ccccc2)C=C(Cc2ccccc2)N1", "read by": "MTT", "strain": "IIIB", "cell line": "MT-4", "value": ">292 µM"}
{"structure": "Nc1nc(NC2CC2)c2ncn([C@H]3C=C[C@@H](CO)C3)c2n1", "read by": "MTT", "strain": "LAI", "cell line": "MT-2", "value": "2.6 µM"}
{"structure": "CC(C)=CCN1Cc2cccc3[nH]c(=S)n(c23)C[C@@H]1C", "read by": "cytopathic effect / MTT", "strain": "A17", "mutations": "RT-K103N Y181C", "cell line": "MT-4", "value": ">100 µM"}
{"structure": "O=C(/C=C/c1ccc(O)cc1)[Se]c1ccccc1", "read by": "MTT", "strain": "LAI", "cell line": "MT-2", "value": "4.5 µM"}
{"structure": "O=S1(=O)N=C(Nc2ccccc2Cl)C=C(Cc2ccccc2)N1", "read by": "MTT", "strain": "IIIB", "cell line": "MT-4", "value": ">182 µM"}
{"structure": "C1CNCCNCCCN(CCCN2CCCNCCNCCCNCC2)CCNC1", "read by": "p24 / ELISA", "strain": "IIIB", "cell line": "PBL", "value": "1.86 µM"}
{"structure": "COc1c(O)c(I)c2c(c1OC)-c1c(c(I)c(O)c(OC)c1OC)C[C@H](C)[C@H](C)C2", "read by": "cytopathic effect / MTT", "strain": "IIIB", "cell line": "MT-4", "value": "0.39 µM"}
{"structure": "Nc1nc2c(ncn2[C@H]2CC[C@@H](CO)O2)c(=O)[nH]1", "read by": "p24", "strain": "LAV", "cell line": "H9", "value": ">1 µM"}
{"structure": "Cc1cn([C@@H]2O[C@H](CO[Si](C)(C)C(C)(C)C)C3(OS(=O)(=O)C=C3N)[C@H]2O[Si](C)(C)C(C)(C)C)c(=O)n(C)c1=O", "read by": "syncytia", "strain": "IIIB", "cell line": "CEM", "value": "0.06 µM"}
{"structure": "Oc1ccc(/C=C/c2cc(O)cc(O)c2)cc1", "read by": "p24", "setting": "clinical isolate", "strain": "EJC-X1", "cell line": "PBMC", "value": ">10 µM"}
{"structure": "CCOCn1c(Cc2cc(C)cc(C)c2)c(CC)c(=O)[nH]c1=O", "read by": "cytopathic effect / MTT", "strain": "IIIB", "cell line": "MOLT-4", "value": "0.0012 µM"}
{"structure": "C[C@H]1/C=C/[C@@]2(C)CC[C@@H](C(C)(C)O)[C@@H]2[C@@H](O)C[C@](C)(O)/C=C/C1", "read by": "cytopathic effect / XTT", "strain": "95BRRJ021 R5", "cell line": "U87 (CD4+ CCR5+ CXCR4+) + U87", "value": "~9 µM"}

The last 6 rows once more:

{"structure": "COc1c(O)c(I)c2c(c1OC)-c1c(c(I)c(O)c(OC)c1OC)C[C@H](C)[C@H](C)C2", "read by": "cytopathic effect / MTT", "strain": "IIIB", "cell line": "MT-4", "value": "0.39 µM"}
{"structure": "Nc1nc2c(ncn2[C@H]2CC[C@@H](CO)O2)c(=O)[nH]1", "read by": "p24", "strain": "LAV", "cell line": "H9", "value": ">1 µM"}
{"structure": "Cc1cn([C@@H]2O[C@H](CO[Si](C)(C)C(C)(C)C)C3(OS(=O)(=O)C=C3N)[C@H]2O[Si](C)(C)C(C)(C)C)c(=O)n(C)c1=O", "read by": "syncytia", "strain": "IIIB", "cell line": "CEM", "value": "0.06 µM"}
{"structure": "Oc1ccc(/C=C/c2cc(O)cc(O)c2)cc1", "read by": "p24", "setting": "clinical isolate", "strain": "EJC-X1", "cell line": "PBMC", "value": ">10 µM"}
{"structure": "CCOCn1c(Cc2cc(C)cc(C)c2)c(CC)c(=O)[nH]c1=O", "read by": "cytopathic effect / MTT", "strain": "IIIB", "cell line": "MOLT-4", "value": "0.0012 µM"}
{"structure": "C[C@H]1/C=C/[C@@]2(C)CC[C@@H](C(C)(C)O)[C@@H]2[C@@H](O)C[C@](C)(O)/C=C/C1", "read by": "cytopathic effect / XTT", "strain": "95BRRJ021 R5", "cell line": "U87 (CD4+ CCR5+ CXCR4+) + U87", "value": "~9 µM"}